Pooled drug test results. Numbers come from NIAID ChemDB, via PubChem.

Shared fields: tests in culture; agent: HIV-1; cells: MT-4; measure: EC50

ECn: concentration that inhibits the pathogen or its effect by n%. Conditions beyond the fields shown may differ between rows. An empty or dashed field is not shown.

structure	strain	mutations	read by	conditions	value
NC(=O)c1ccc(NC(=O)CSc2nc3ncccc3n2-c2ccc(C3CC3)c3ccccc23)c(Br)c1	IIIB	-	MTT	-	0.073 µM
O=C(/C=C/c1ccc(O)c(O)c1)CCc1ccccc1	-	-	cytopathic effect / MTT	-	>15 µM
CC(=O)OC[C@H]1O[C@@H](SCCOP(=O)(OCCS[C@@H]2O[C@H](CO)[C@@H](O)[C@H](O)[C@H]2O)OC[C@H]2O[C@@H](n3cc(C)c(=O)[nH]c3=O)C[C@@H]2N=[N+]=[N-])[C@H](OC(C)=O)[C@@H](OC(C)=O)[C@@H]1OC(C)=O	IIIB	-	cytopathic effect / MTT	-	0.06 µM
CC[C@@]1(O)C(=O)OCc2c1cc1n(c2=O)Cc2cc3ccccc3nc2-1	-	-	cytopathic effect / MTT	-	>0.01 µM
CN(C)C(=O)N1CCN(C(=O)N(C)CCN2CCCCC2)CC1	NL4-3	-	MTT	-	9.6 µg/mL
C[C@H](Cn1cnc2c(N)ncnc21)OCP(=O)(O)O	NL4-3	+Vpx	-	-	2.162 µM
Cc1cn([C@H]2C[C@H](N=[N+]=[N-])[C@@H](CO)O2)c(=O)[nH]c1=O	NL4-3	-	MTT	-	0.0007 µg/mL
C1CNCCNCC(CCOCCOCCC2CNCCNCCCNCCNC2)CNCCNC1	IIIB	-	cytopathic effect / MTT	5 d	7.47 µM
COc1ccc(S(=O)(=O)N(CC(C)C)C[C@@H](O)[C@H](Cc2ccc(OC)c(Cl)c2)NC(=O)O[C@H]2CO[C@H]3OCC[C@H]32)cc1	NL4-3	-	p24 / luminescence	-	0.00037 µM
Cc1nnc(C(=O)NC(C)(C)c2nc(C(=O)NCc3ccc(F)cc3)c(O)c(=O)n2C)o1	NL4-3	-	-	-	0.005 µM
S=C(NCCc1ccccc1)Nc1nccs1	IIIB	-	cytopathic effect	-	1.33 µM
O=C(/C=C/c1ccc(O)c(O)c1)c1cccc(C(=O)/C=C/c2ccc(O)c(O)c2)c1	-	-	cytopathic effect / MTT	-	>5 µM
Cc1csc(NC(=S)NCCc2ccccc2)n1	IIIB	-	cytopathic effect	-	0.5 µM
CCOC(=O)c1ccc(NC(=O)CSc2nc3ncccc3n2-c2ccc(C3CC3)c3ccccc23)c(Br)c1	IIIB	-	MTT	-	0.58 µM
Cc1cn([C@H]2C[C@H](N=[N+]=[N-])[C@@H](CO)O2)c(=O)[nH]c1=O	IIIB	-	cytopathic effect / MTT	-	0.017 µM
Cc1cn([C@H]2C[C@H](N=[N+]=[N-])[C@@H](CO)O2)c(=O)[nH]c1=O	118(RT-L100I)	RT-L100I	cytopathic effect / XTT	-	0.005 µM
O=c1[nH]cnc2c1ncn2[C@H]1CC[C@@H](CO)O1	NL4-3	-	-	-	1.47 µM
CC(=O)OC[C@H]1O[C@@H](SCCOP(=O)(OCS[C@@H]2O[C@H](COC(C)=O)[C@@H](OC(C)=O)[C@H](OC(C)=O)[C@H]2OC(C)=O)OC[C@H]2O[C@@H](n3cc(C)c(=O)[nH]c3=O)C[C@@H]2N=[N+]=[N-])[C@H](OC(C)=O)[C@@H](OC(C)=O)[C@@H]1OC(C)=O	IIIB	-	cytopathic effect / MTT	-	0.3 µM
Cc1cc(-c2ccc(C#N)cc2)cc(C)c1Oc1nc(Nc2ccc(C#N)cc2)nc2ccsc12	IIIB	E138K	MTT	-	0.0423 µM
Fc1cccc(F)c1CCNC(=S)Nc1nccs1	IIIB	-	cytopathic effect	-	0.04 µM
C1CNCCNCCCNCCNC1	IIIB	-	cytopathic effect / MTT	6 d	>67.9 µM
CO[P@](=O)(c1cc(C)cc(/C=C/C#N)c1)c1c(C(N)=O)[nH]c2ccc(Cl)cc12	IIIB	Y181C	-	-	0.0021 µM
S=C(NCCc1ccccn1)Nc1ccc(Br)cn1	118(RT-L100I)	RT-L100I	cytopathic effect / XTT	-	0.8 µM
N#Cc1ccc(Nc2nc(Oc3ccc(-c4ccc(C#N)cc4)c(F)c3)c3sccc3n2)cc1	IIIB	-	MTT	-	0.1015 µM
COC(=O)N[C@H](C(=O)N[C@@H](Cc1ccccc1)[C@@H](O)CN(Cc1ccc(-c2ccccn2)cc1)NC(=O)[C@@H](NC(=O)OC)C(C)(C)C)C(C)(C)C	NL4-3	L23I E34Q K43I M46I I50L G51A L63P A71V V82A T91A	p24 / luminescence	-	>1 µM
COc1cc(-c2ccc(C#N)cc2)ccc1Oc1nc(Nc2ccc(C#N)cc2)nc2ccsc12	IIIB	-	MTT	-	0.0358 µM
O=C(/C=C(O)/C=C/c1ccc(O)c(O)c1)/C=C/c1ccc(O)c(O)c1	-	-	cytopathic effect / MTT	-	>17 µM
CCN(CC)C(=O)N1CCN(C(=O)N2CCOCC2)CC1	NL4-3	-	MTT	-	>125 µg/mL
O=C(/C=C/c1ccc(O)c(O)c1)c1ccc(O)cc1O	-	-	cytopathic effect / MTT	-	>5.3 µM
Cc1cn([C@H]2C[C@H](N=[N+]=[N-])[C@@H](COP(=O)(OCCS[C@@H]3O[C@H](CO)[C@@H](O)[C@H](O)[C@H]3O)OCCS[C@@H]3O[C@H](CO)[C@@H](O)[C@H](O)[C@H]3O)O2)c(=O)[nH]c1=O	IIIB	-	cytopathic effect / MTT	-	0.04 µM
COC(=O)c1ccc(NC(=O)CSc2nc3ncccc3n2-c2ccc(C3CC3)c3ccccc23)c(Br)c1	IIIB	-	MTT	-	0.37 µM
NC(=O)c1ncn([C@@H]2O[C@H](CO)[C@@H](O)[C@H]2O)n1	IIIB	-	cytopathic effect	-	>3.3 µM
Cc1ccc(NC(=S)NCCc2c(F)cccc2F)nc1	IIIB	-	cytopathic effect	-	0.33 µM
CCC(C)(NC(=O)c1ccc(NC(=O)CSc2nc3ncccc3n2-c2ccc(C3CC3)c3ccccc23)c(Cl)c1)C(=O)O	RES056	-	MTT	-	>5.04 µM
CN(C)C(=O)N1CCN(C(=O)N2CCOCC2)CC1	NL4-3	-	MTT	-	>125 µg/mL
N#Cc1ccc(Nc2nc(Oc3ccc(-c4ccc(C#N)cc4)cc3[N+](=O)[O-])c3sccc3n2)cc1	RES056	-	MTT	-	>219 µM
c1cnc2c(c1)cc(CN1CCCNCCNCCCNCC1)c1cccnc12	IIIB	-	cytopathic effect / MTT	4 d	2.23 µM
O=C1/C(=C/c2ccc(O)c(O)c2)CSC/C1=C\c1ccc(O)c(O)c1	-	-	cytopathic effect / MTT	-	>4 µM
c1cc(CN2CCCNCCNCCCNCC2)ccc1CN1CCCNCCNCCCNCC1	-	-	MTT	-	0.001 µg/mL
Cc1cc(C)c(-n2c(SCC(=O)Nc3ccc(S(N)(=O)=O)cc3Br)nc3ncccc32)c(C)c1	-	-	MTT	-	0.21 µM
O=C(O)c1cn(C2CC2)c2cc(N3CCNCC3)c(F)cc2c1=O	IIIB	-	cytopathic effect / XTT	-	>50 µg/mL
CCC(NC(=O)c1ccc(NC(=O)CSc2nc3ncccc3n2-c2ccc(C3CC3)c3ccccc23)c(Cl)c1)C(=O)O	RES056	-	MTT	-	>0.55 µM
Cc1ccnc2c1NC(=O)c1cccnc1N2C1CC1	NL4-3	-	-	-	0.237 µM
CCN(CC)C(=O)N1CCN(C(=O)N(C)CCN2CCCC2)CC1	NL4-3	-	MTT	-	36.4 µg/mL
O=C(O)c1cn2c3c(c(N4CCN(c5ccccn5)CC4)c(F)cc3c1=O)OCC2CF	IIIB	-	cytopathic effect / XTT	-	6.1 µg/mL
CC(C)=CCN1Cc2cc(Cl)cc3[nH]c(=S)n(c23)C[C@@H]1C	IIIB	-	cytopathic effect / XTT	-	0.21 µM
O=C1/C(=C/c2ccc(O)c(O)c2)CNC/C1=C\c1ccc(O)c(O)c1	-	-	cytopathic effect / MTT	-	>21 µM
Cc1ccnc2c1NC(=O)c1cccnc1N2C1CC1	IIIB	-	cytopathic effect / XTT	-	0.13 µM
NC(=O)c1ncn([C@H]2O[C@@H](COP(=O)(O)OC[C@@H]3C=C[C@H](n4cnc5c(=O)[nH]cnc54)O3)[C@H](O)[C@@H]2O)n1	IIIB	-	cytopathic effect	-	>17.5 µM
CCn1cc(C(=O)O)c(=O)c2cc(F)c(N3CCNCC3)nc21	IIIB	-	cytopathic effect / XTT	-	>50 µg/mL
CCc1csc(NC(=S)NCCc2ccccn2)n1	IIIB	-	cytopathic effect	-	0.34 µM

The last 6 rows once more:

| structure | strain | mutations | read by | conditions | value |
|---|---|---|---|---|---|
| CC(C)=CCN1Cc2cc(Cl)cc3[nH]c(=S)n(c23)C[C@@H]1C | IIIB | - | cytopathic effect / XTT | - | 0.21 µM |
| O=C1/C(=C/c2ccc(O)c(O)c2)CNC/C1=C\c1ccc(O)c(O)c1 | - | - | cytopathic effect / MTT | - | >21 µM |
| Cc1ccnc2c1NC(=O)c1cccnc1N2C1CC1 | IIIB | - | cytopathic effect / XTT | - | 0.13 µM |
| NC(=O)c1ncn([C@H]2O[C@@H](COP(=O)(O)OC[C@@H]3C=C[C@H](n4cnc5c(=O)[nH]cnc54)O3)[C@H](O)[C@@H]2O)n1 | IIIB | - | cytopathic effect | - | >17.5 µM |
| CCn1cc(C(=O)O)c(=O)c2cc(F)c(N3CCNCC3)nc21 | IIIB | - | cytopathic effect / XTT | - | >50 µg/mL |
| CCc1csc(NC(=S)NCCc2ccccn2)n1 | IIIB | - | cytopathic effect | - | 0.34 µM |